Article PMC6723587 (Toxins, 2019)
Where “and” joins values, the source holds several entries; their conditions need not be identical. Equal values may be shown once. Read-outs that look alike come from different tables or passages of the source.

Experiments:
[1] = for Ke (excretion rate constant): model II, fixed effects, single oral dose DON3G 1 µg/kg bw; for RDF (reversed dosimetry factor): intake / cumulative excreted amount of the substance, 24 h urine
[2] = one human volunteer; cited from earlier work
[3] = for Ke (excretion rate constant): model I, fixed effects, single oral dose DON 1 µg/kg bw; for RDF (reversed dosimetry factor): intake / cumulative excreted amount of the substance, 24 h urine
[4] = Metabolic study in one human volunteer on a diet naturally contaminated with DON, urinary excretion; conditions: worked out from the data of ref 7
[5] = based on cumulated excretion of the substance
[6] = after 24 h, single dose of DON3G

| Substance | Ke (excretion rate constant) [1] | RDF (reversed dosimetry factor) ([1]; single dose of DON3G) | part of total DON-glucuronides [2] | Ke (excretion rate constant) [3] | RDF (reversed dosimetry factor) ([3]; single dose of DON) | RDF, roughly, extrapolated from Warth et al. [4] | ratio DON-15-GlcA/DON, cumulative amount in urine [1, 6] | ratio DON-15-GlcA/DON-3-GlcA, cumulative amount in urine [1, 6] | RDF (reversed dosimetry factor) ([1]; single dose of DON3G, listed as DON-15-GLcA) | formation relative to DON-3-GlcA [2] | ratio DON-15-GlcA/DON, cumulative amount in urine ([3]; after 24 h, single dose of DON) | ratio DON-15-GlcA/DON-3-GlcA, cumulative amount in urine ([3]; after 24 h, single dose of DON) | proposed RDF for exposure to a mixture of DON and DON3G (ratio unknown) [5] |
| --- | --- | --- | --- | --- | --- | --- | --- | --- | --- | --- | --- | --- | --- |
| DON-3-glucuronide | 0.49 | 11.21 | 27% | 1.28 | 12.6 | 7.2 | – | – | – | – | – | – | – |
| DON-15-glucuronide | 0.49 | 3.4 | 73% | 2.31 | 2.7 and 2.67 | 2.7 | 2.2 | 3.0 | 3.37 | about threefold more efficiently formed | 2.6 | 4.5 | 3 |
